A mixed list of measured activities; the numbers were collected in NIAID ChemDB.

Shared fields: whole-cell or culture tests; agent: Sindbis virus; read by: cytopathic effect; read-out: EC50

An empty or dashed field is not shown. ECn is the concentration giving n% inhibition of infection, replication or growth. Rows are shuffled and stem from different studies.

structure | cell line | value
Nc1ncnc2c1ncn2C[C@H](O)CO | VERO | 150 µg/mL
Cc1cn([C@H]2C[C@@H]3OC[C@H]2[C@@H]3CO)c(=O)[nH]c1=O | VERO | >400 µg/mL
Nc1ncnc2c1ncn2[C@H]1[C@H](O)[C@H](O)[C@]2(CO)O[C@H]12 | VERO | 7 µg/mL
CC(C)[Si]1(C(C)C)OC[C@H]2O[C@@H](n3cnc4cc(Cl)c(Cl)cc43)[C@H](O)[C@H]2O[Si](C(C)C)(C(C)C)O1 | HeLa | >10 µg/mL
Nc1ncnc2c1ncn2C[C@H](O)CO | VERO | >400 µg/mL
Cc1cn([C@@H]2CC[C@H](CO)C2)c(=O)[nH]c1=O | VERO | >400 µg/mL
Nc1ncnc2c1ncn2C[C@@H](O)[C@H](O)C(=O)O | VERO | >400 µg/mL
Nc1ncnc2c1c(Br)cn2[C@@H]1O[C@H](CO)[C@@H](O)[C@H]1O | VERO | >0.1 µg/mL
Nc1ncnc2c1ncn2C[C@@H](CO)OCP(=O)(O)O | - | >50 µM
Nc1ncnc2c1ccn2[C@@H]1O[C@H](CO)[C@H](O)[C@H]1O | VERO | ≥40 µg/mL
O=c1[nH]cnc2c1ncn2[C@@H]1C=C(CO)[C@@H](O)[C@H]1O | VERO | >400 µg/mL
Cc1cn([C@@H]2C[C@H](CO)[C@H](O)C2)c(=O)[nH]c1=O | VERO | >200 µg/mL
Nc1nc(Cl)c2nnn(C[C@H]3CC[C@@H](CO)C3)c2n1 | VERO | >200 µg/mL
Nc1cc(OC[C@H](CO)OCP(=O)(O)O)nc(N)n1 | - | >15 µM
COC(C)c1cn([C@@H]2O[C@H](CO)[C@@H](O)[C@H]2O)c2ncnc(N)c12 | VERO | 40 µg/mL
C[C@H]1C[C@@H](n2cnc3c(N)ncnc32)[C@H](O)[C@@H]1O | VERO | >100 µg/mL
OC[C@H]1O[C@H](n2cnc3cc(Cl)c(Cl)cc32)[C@@H](O)[C@H]1O | HeLa | >200 µg/mL
Nc1ncnc2c1c(Br)cn2[C@@H]1O[C@H](CO)[C@@H](O)[C@H]1O | VERO | 0.2 µg/mL
Nc1nc2c(nnn2C[C@H]2CC[C@@H](CO)C2)c(=O)[nH]1 | VERO | >200 µg/mL
Nc1nccc2c1ncn2[C@@H]1C[C@H](CO)[C@@H](O)[C@H]1O | VERO | 40 µg/mL
OCCOC(CCO)n1cnc2cc(Cl)c(Cl)cc21 | HeLa | >100 µg/mL
O=c1[nH]c(=O)n([C@H]2C[C@H](O)[C@@H](CO)O2)cc1/C=C/Br | VERO | >400 µg/mL
Nc1nccc2c1ncn2[C@@H]1O[C@H](CO)[C@@H](O)[C@H]1O | VERO | ≥40 µg/mL
NC(=O)c1ccnc([C@@H]2O[C@H](CO)[C@@H](O)[C@H]2O)c1 | VERO | >400 µg/mL
OCCOC([C@H](O)CO)n1cnc2cc(Cl)c(Cl)cc21 | HeLa | >200 µg/mL
Nc1ncnc2c1ncn2[C@@H]1C=C(CO)[C@@H](O)[C@H]1O | VERO | 2 µg/mL
C[C@H](COc1cc(N)nc(N)n1)OCP(=O)(O)O | - | >180 µM
Nc1ncnc2c([C@@H]3O[C@H](CO)C[C@H]3O)[nH]nc12 | VERO | 400 µg/mL
Nc1nc(N)c2nnn(C[C@H]3CC[C@@H](CO)C3)c2n1 | VERO | >100 µg/mL
Nc1nccc2c1ncn2[C@@H]1C=C[C@@H](O)[C@H]1O | VERO | >400 µg/mL
OCCOC(CO)n1cnc2cc(Cl)c(Cl)cc21 | HeLa | >200 µg/mL

The last 4 rows once more:

structure | cell line | value
Nc1ncnc2c([C@@H]3O[C@H](CO)C[C@H]3O)[nH]nc12 | VERO | 400 µg/mL
Nc1nc(N)c2nnn(C[C@H]3CC[C@@H](CO)C3)c2n1 | VERO | >100 µg/mL
Nc1nccc2c1ncn2[C@@H]1C=C[C@@H](O)[C@H]1O | VERO | >400 µg/mL
OCCOC(CO)n1cnc2cc(Cl)c(Cl)cc21 | HeLa | >200 µg/mL